Our source for the TI values is patent publication US11246857B2, “Anti-fungal inhibitors” (THE JOHNS HOPKINS UNIVERSITY, priority 2017, dated 2022).

Each structure is given as a SMILES string. The index is printed as in the source, without its formula.

This data set has as its system human fibroblast. The experiment in a line: Toxicity against human fibroblast. It counts as cell-based. As to conditions: therapeutic index calculated from toxicity against human fibroblast and MIC. An excerpt: XlogP values are derived from PubChem and describe the lipophilicity of the molecule. The topological polar surface area (tPSA) is a metric for predicting cell penetration, with values <140 to be favorable. […] Toxicity against human fibroblast was used to calculate the therapeutic index TI.
Turning to `Cc1ccc2c(c1)c1cc(C)ccc1n2CC(O)CNC1CCCCC1` (stereo not shown) [Compound 380], the TI is listed as 2.6.

Take `O=C(Nc1cccc(C(F)(F)F)c1)c1cc(Cl)ccc1O` [Compound 155]: the TI is 0.02.

In the case of `Cc1ccc2cc3c(N)c4c(C)ccc(C)c4nc3nc2c1` [Compound 253], the TI is recorded as 0.5.

Take `Cc1ccc(Nc2nc(-c3ccccn3)cs2)cc1` [Compound 64]: the TI is listed as >5.3.
